## Primary screen of a compound library

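Phenotypic screen: M. tuberculosis growth, glucose 7H9 medium, 3 days; the read-out is not stated. Compounds at 50 µM. The record gives no direction; compounds that gave an IC50 in retests scored well above the rest, so higher reads as more growth inhibition. About 69,000 compounds were tested under these conditions; 1.1% (about 760) showed 50% or more at least once.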

Each number is a percent effect as filed.
The controls that fix the scale are not given in the record; negative values are as filed.
This is part of a subset picked to be rich in strong results.
Two or more numbers in one place are separate tests of the same structure; such repeats can differ widely.

compound: NC(=O)C1(CNC(=O)CCc2ccc(Cl)s2)CCOCC1
Percent Effect: 9.535%

compound: O=C(Cc1cccc(Cl)c1)N[C@@H]1CCNC[C@H]1O
Percent Effect: 7.96%

compound: Cn1nnnc1SCC1(O)CCCCC1
Percent Effect: 8.912%

compound: O=C1CCN(C(=O)CCc2ccc(Cl)cc2Cl)CCN1
Percent Effect: -8.068%

compound: CC(C)c1ncc(C(=O)N(C)c2ccc(Br)cn2)s1
Percent Effect: 7.44% & 32.82%

compound: Cc1nc(C2CCCN2Cc2cc(Cl)c3c(c2)OCCO3)no1 (centres undefined)
Percent Effect: 55.44%

compound: COc1cccc(Cn2[nH]c(C)c3c(NC(=O)C(C)OC)nnc2-3)c1 (centres undefined)
Percent Effect: -8.847% & 0.9445%

compound: Cc1c(Br)cccc1C(=O)NCc1cnn(C)c1
Percent Effect: -28.57%

compound: CC(C)Oc1ccc(CNC(=O)c2cc(C(N)=O)cs2)cc1F
Percent Effect: 13.97%

compound: COc1cc(C)ccc1OCCC(=O)N1CCC(C(N)=O)C1 (centres undefined)
Percent Effect: -0.5406%

compound: c1cn(Cc2ccc(N3CCCN(C4CCCC4)CC3)nc2)cn1
Percent Effect: -40.81%

compound: CC(=O)NCCNC(=O)NCCCc1cccc(F)c1
Percent Effect: 11.8%

compound: O=C(Cn1cc(Cl)cn1)Nc1ccc2c(c1)OCCCO2
Percent Effect: -2.336%

compound: CCc1nc2c(NCC3COc4c(cccc4OC)C3)ncnc2o1 (centres undefined)
Percent Effect: 64.54%

compound: Cc1cccc(C)c1NC(=O)CC(CN1CCN(C)CC1)C(=O)O (centres undefined)
Percent Effect: 86.76% & 77.94%

compound: CN1CCC(CNC(=O)CCSc2ccc3c(c2)OCCO3)C1 (centres undefined)
Percent Effect: 16.2%

compound: NC(=O)COc1ccc(CNCc2ccc(Cl)c(F)c2)cc1
Percent Effect: -13.76%

compound: CCNc1ncc2c(n1)CN(c1ccc(OC(F)(F)F)cc1)C2=O
Percent Effect: 26.23%

compound: C[C@@H]1CN(Cc2nnc(-c3cccnc3)o2)CC[C@]1(C)O
Percent Effect: -26.72%

compound: O=C(NCC1CC1)C1CCCN(c2cccc(C(F)(F)F)n2)C1 (centres undefined)
Percent Effect: 54.05%

compound: Cc1oc(-c2ccccc2)nc1C(=O)NC1=NCCS1
Percent Effect: 18.86% & 7.202%

compound: Cc1cc(C)c(C#N)c(N2CCC(Cc3ccccc3)CC2)n1
Percent Effect: 67.56%

compound: Cc1noc(C)c1C(=O)N1CCCC(c2nccn2Cc2cscn2)C1 (centres undefined)
Percent Effect: 1.123%

compound: O=C(NCCn1cccn1)c1nnc2ccccc2n1
Percent Effect: 29.11%

compound: CCC[C@@H]1CN(C(=O)c2cc3ccccc3s2)C[C@H]1NS(C)(=O)=O
Percent Effect: 6.427% & 2.189%

compound: CC(C)CCC(=O)NCCc1ccn(-c2ccccc2)n1
Percent Effect: 32.89%

compound: Cc1cccc(NCCNc2ccc(C#N)cn2)n1
Percent Effect: -2.257%

compound: Cc1cc(C)cc(OCC(=O)N2CCC2)c1
Percent Effect: 4.947%

compound: Cc1cccc(N2CCN(C(=O)C3CC4(CCNCC4)CN3)CC2)n1 (centres undefined)
Percent Effect: -41.87%

Once more, the final 4:

* CC(C)CCC(=O)NCCc1ccn(-c2ccccc2)n1 | 32.89%
* Cc1cccc(NCCNc2ccc(C#N)cn2)n1 | -2.257%
* Cc1cc(C)cc(OCC(=O)N2CCC2)c1 | 4.947%
* Cc1cccc(N2CCN(C(=O)C3CC4(CCNCC4)CN3)CC2)n1 (centres undefined) | -41.87%

From ChEMBL document CHEMBL3988442, “University of Dundee, Small-Polar-MMV Screening Library” (2021).